Source: patent publication US8092810B2, “Use of polypeptides having antimicrobial activity” (Novozymes A/S, priority 2006, dated 2012)

Assay: Odor evaluation of soiled laundry, wash in buffer
Conditions: particularly on T-shirt 1 and the sock

B1: Lento: Bacillus licheniformis polypeptide having amino acids 1-85 of SEQ ID NO: 2, purified from ATCC 14580 fermentation broth (protein)
chain: MKNHLYEKKKRKPLTRTIKATLAVLTMSIALVGGATVPSFAWVNPGYHYQYPSEGGTWRYGFVNAGLRSEYNHPTKVHGSTVQKL
modifications: Bacillus licheniformis ATCC 14580
- effect on the odor of the items: reducing effect on the odor of the items
